# In patent US12359240B2, “Membrane protease-based methods for detection of bacteria” (Nanyang Technological University, priority 2019, dated 2025):
# Test: PTAA-peptide fluorescence and optical absorption measurements (no enzyme)
# Settings: PTAA 10 μg/mL
# Experimental: All PTAA and LL37FRRY mixing were carried out in the reaction buffer. All optical absorption and fluorescence measurements were carried out on 100 μL samples in a flat bottom 96 well plate using a TECAN Infinite® 200 PRO(Switzerland). Optical absorption measurements were collected from 330-650 nm. […] To understand the effect of intact and cleaved fragments on the fluorescence intensity and optical absorption of PTAA, LL37FRRV, frag1LL37FRRV (SEQ ID NO: 47) and frag2LL37FRRV (SEQ ID NO: 48) were added in different ratios (10:0, 8:2, 6:4, 4:6, 2:8, 0:10) while keeping the total peptide concentration at 50 μM. The fluorescence intensity and optical absorption spectra were measured as mentioned before.
sequence,measurement,setting,value
C L L G D F F R R Y K E K I G (CLLGDFFRRYKEKIG; LL37FRRY),peptide concentration at which the blue shift of PTAA absorption saturates,pH 8 reaction buffer,50 µM
same,peptide concentration at which the PTAA fluorescence intensity increase saturates,"emission 550 nm, excitation 420 nm",50 µM
